Source: patent US20230192819A1 (TWIST BIOSCIENCE, published 2023)

B1: Antibody 1-1 (Fc fusion)
chain: EVQLVESGGGLVQPGGSLRLSCAASGSIGSINAMGWFRQAPGKEREWVAGISNGGTTNYADSVKGRFTISADNSKNTAYLQMNSLKPEDTAVYYCAADGVPEYSDYASGPVWGQGTLVTVSS
B2: Antibody 1-8 (Fc fusion)
chain: EVQLVESGGGLVQPGGSLRLSCAASGRTLSRYTMGWFRQAPGKEREFVASITSGGTTNYADSVKGRFTISADNSKNTAYLQMNSLKPEDTAVYYCAKEDVGKPFDWGQGTLVTVSS
B3: Antibody 1-7 (Fc fusion)
chain: EVQLVESGGGLVQPGGSLRLSCAASGGTFSSIGMGWFRQAPGKEREFVAAISWDGGATAYADSVKGRFTISADNSKNTVYLQMNSLKPEDTAVYYCAKEDVGKPFDWGQGTLVTVSS
B4: Antibody 1-10 (Fc fusion)
chain: EVQLVESGGGLVQPGSSLRLSCAASGGTFSSIGMGWFRQAPGKEREFVAAISWDGGATAYADSVKGRFTISADNSKNTAYLQMNSLKPEDTAVYYCAKEDVGKPFDWGQGTLVTVSS
B5: Antibody 1-15 (Fc fusion)
chain: EVQLVESGGGLVQPGGSLRLSCAASGGIFSDMFMGWFRQAPGKEREFVATIDWSGDTAFYADSVKGRFTISADNSKNTAYLQMNSLKPEDTAVYYCAVDLSGDAVYDWGQGTLVTVSS

Legend:
[1] = biological target: South Africa Variant 501.V2 (SARS-CoV-2)
UK Variant B.1.1.7 = UK Variant B.1.1.7 (SARS-CoV-2)

| Binder | IC50 [1] | IC50 (UK Variant B.1.1.7) |
| --- | --- | --- |
| B1 | 73.3 nM | 34 nM |
| B2 | 4.95 nM | 62.3 nM |
| B3 | 1.5 nM | 2.01 nM |
| B4 | 1.75 nM | 0.356 nM |
| B5 | 0.213 nM | 1.23 nM |
